{"source": "paper PMC12444507", "about": "(ACS Omega, 2025)", "test_system": "SARS-CoV-2 strain JPN/TY/WK-521 (SARS-CoV-2^WK-521, ancestral Wuhan strain)", "format": "cell-based"}
{"smiles": "CC(C)(C)[C@H](NC(=O)C(F)(F)F)C(=O)N1C[C@H]2[C@@H]([C@H]1C(=O)N[C@@H](C[C@@H]1CCNC1=O)C(=O)c1nc3cc(F)ccc3s1)C2(C)C", "note": "[TKB272 (8)]", "values": [{"measurement": "enhancement of antiviral activity compared to TKB245 (6)", "value": "approximately 3 fold"}]}
